Compound potency records, mixed from different reports. Data source: NIAID ChemDB in PubChem.

All rows: tests in culture; agent: HIV-2

An empty or dashed field is not shown.

smiles	read by	mutations	strain	measure	cell line	setting	result
Cc1cn([C@H]2C[C@H](N=[N+]=[N-])[C@@H](CO)O2)c(=O)[nH]c1=O	p24		CDC310319	EC50	PBMC		0.006 µM
Cc1ccnc2c1NC(=O)c1cccnc1N2C1CC1	MTT / absorbance		ROD	EC50	MT-4		>4 µM
Cc1cn([C@H]2C=C[C@@H](COP3(=O)OCc4c(Cl)cccc4O3)O2)c(=O)[nH]c1=O				EC50	CEM + CEM TK-		0.8 µM
O=C(N/N=C/c1cc([N+](=O)[O-])ccc1Cl)c1csc(N2N=C(c3ccccc3)CC2c2ccc(Cl)cc2)n1	MTT / absorbance		ROD	EC50	MT-4		>125 µM
Cc1cn([C@H]2C=C[C@@H](COP3(=O)Oc4ccccc4C(C)O3)O2)c(=O)[nH]c1=O				EC50	CEM + CEM/O		0.34 µM
CC(C)(C)NC(=O)[C@@H]1C[C@@H]2CCCC[C@@H]2CN1C[C@@H](O)[C@H](Cc1ccccc1)NC(=O)[C@H](CC(N)=O)NC(=O)c1ccc2ccccc2n1	RT activity		ROD	EC90	PBMC		0.019 µM
CN=C1CN=C(c2ccc[nH]2)c2cc(Cl)ccc2N1	plaque count		ROD	EC50	HT4 + HT4-6C		3 µM
COc1ccc(-n2c(-n3[nH]c(=O)c4ccccc4c3=O)nc3ccccc3c2=O)cc1	visual reading		ROD	EC50	MT-4		100 µM
Clc1nc(Cl)c2c(n1)Oc1nc(Cl)nc(Cl)c1C2c1ccccc1	cytopathic effect		EHO	EC50	MT-4		>17.5 µM
C=CCn1c(-n2[nH]c(=O)c3ccccc3c2=O)nc2ccccc2c1=O	visual reading		ROD	EC50	MT-4		100 µM
CCc1c(C(=O)c2cc(C)cc(C)c2)n(CC2CC=CC2)c(=O)[nH]c1=O	cytopathic effect / XTT		CDC310342	EC50	PBMC	clinical isolate	0.003 µM
Cc1cn([C@H]2C[C@H](N=[N+]=[N-])[C@@H](CO)O2)c(=O)[nH]c1=O	visual reading		ROD	EC50	MT-4		0.000642 µM
COc1ccc(S(=O)(=O)N(CC(C)C)C[C@@H](O)[C@H](Cc2ccc(F)cc2)NC(=O)O[C@H]2CCO[C@H]3OCC[C@H]32)cc1	MTT		ROD	EC50	MT-2		0.05 µM
Cc1cn([C@H]2C=C[C@@H](COP3(=O)OCc4cccc(-c5ccccc5)c4O3)O2)c(=O)[nH]c1=O				EC50	CEM + CEM TK-		0.15 µM
O=C(N/N=C/c1ccccc1Cl)c1csc(N2N=C(c3ccccc3)CC2c2ccc(Cl)cc2)n1	MTT / absorbance		ROD	EC50	MT-4		>125 µM
CO[C@@H]1[C@@H](O)[C@@H](O)[C@H](O)[C@H](O)[C@H]1n1ccc(N)nc1=O	cytopathic effect / MTT			EC50	MT-4		<10 µg/mL
Cc1cn([C@H]2C[C@H](N=[N+]=[N-])[C@@H](CO)O2)c(=O)[nH]c1=O	RT activity		ROD	EC90	PBMC		0.2 µM
CCCCCCCCCCCCOP(=O)(O)OC[C@H]1O[C@@H](n2cc(C)c(=O)[nH]c2=O)C[C@@H]1N=[N+]=[N-]	syncytia		ROD	EC50	CEM + CEM/O		0.64 µM
Cc1cn([C@H]2C[C@H](N=[N+]=[N-])[C@@H](CO)O2)c(=O)[nH]c1=O	cytopathic effect / MTT		MS	EC50	CEM-T4 + CEM		0.0002 µg/mL
c1cc(CN2CCCNCCNCCCNCC2)ccc1CN1CCCNCCNCCCNCC1	antigen		ROD X4	EC50	PBMC		0.007 µg/mL
c1ccc(CNCc2ccc(CN3CCCNCCNCCCNCC3)cc2)nc1	cytopathic effect / MTS		ROD	EC50	MT-4		0.0123 µM
Cn1ncc2c1S(=O)(=O)N(CCc1ccccc1)C(=O)N2CCc1ccccc1Cl	MTT		ROD	EC50	MT-4		>300.1 µM
Cc1cn([C@H]2C[C@H](N=[N+]=[N-])[C@@H](CO)O2)c(=O)[nH]c1=O	cytopathic effect / MTS		ROD	EC50	MT-4		0.0004 µM
Cc1cn([C@H]2C=C[C@@H](COP3(=O)Oc4ccccc4C(C(Cl)(Cl)Cl)O3)O2)c(=O)[nH]c1=O				EC50	CEM + CEM TK-		42 µM
CCOCn1c(Cc2ccccc2)c(C(C)C)c(=O)[nH]c1=O	cytopathic effect / MTT	RT-E219D	EHO	EC50	MT-4		15.6 µM
Cc1cn(Cc2nc3n(n2)CCCCCC3)c(=O)[nH]c1=O			ROD	EC50	MT-4		>65 µg/mL
Cc1cn([C@H]2C=C[C@@H](COP3(=O)Oc4ccccc4C(CCl)O3)O2)c(=O)[nH]c1=O				EC50	CEM + CEM/O		0.35 µM
Cn1ncc2c1S(=O)(=O)N(CCc1ccccc1)C(=O)N2CCc1ccc(Cl)cc1Cl	MTT		ROD	EC50	MT-4		>277.2 µM
COc1ccc(S(=O)(=O)N(CC(C)C)C[C@@H](O)[C@H](Cc2cc(F)cc(F)c2)NC(=O)O[C@H]2CCO[C@H]3OCC[C@H]32)cc1	MTT		ROD	EC50	MT-2		0.0008 µM
CO[C@H]1[C@@H](O)[C@H](n2cnc3c(N)ncnc32)[C@@H](O)[C@H](O)[C@@H]1O.O=C(O)/C=C/C(=O)O	cytopathic effect / MTT			EC50	MT-4		>10 µg/mL
CC(C)Nc1cccnc1N1CCN(C(=O)c2cc3cc(NS(C)(=O)=O)ccc3[nH]2)CC1	cytopathic effect / MTT		ROD	EC50	MT-4		>47.3 µM
COc1ccc(/C=N/NC(=O)c2csc(N3N=C(c4ccccc4)CC3c3ccc(Cl)cc3)n2)cc1	MTT / absorbance		ROD	EC50	MT-4		>125 µM
O=c1[nH]n(-c2nc3ccccc3c(=O)n2-c2ccc(Cl)cc2)c(=O)c2ccccc12	visual reading		ROD	EC50	MT-4		43.68 µM
Cc1cn([C@H]2C=C[C@@H](COP3(=O)OCc4cc(-c5ccccc5)ccc4O3)O2)c(=O)[nH]c1=O				EC50	CEM + CEM TK-		2 µM
Cn1ncc2c1S(=O)(=O)N(CCc1ccc(Br)cc1)C(=O)N2CCc1ccc(Br)cc1	MTT		ROD	EC50	MT-4		>151.2 µM
COC(=O)C(Cc1ccccc1)NC(=O)[C@@H](NC(=O)[C@@H](C[C@H](O)[C@H](CC1CCCCC1)NC(=O)[C@@H](NC(=O)[C@H](Cc1ccccc1)CS(=O)(=O)C(C)(C)C)C(C)C)C(C)C)C(C)C	cytopathic effect / MTT	RT-S102L	EHO	EC50	MT-4		13.7 µM
CCCCCCCCCCCCCCOCCOP(=O)(O)OC[C@H]1O[C@@H](n2cc(C)c(=O)[nH]c2=O)C[C@@H]1N=[N+]=[N-]	syncytia		ROD	EC50	CEM + CEM TK-		>7 µM
CCCN(C)C(=O)Oc1nsnc1-c1c(Cl)ccc(N)c1Cl	cytopathic effect / MTT		EHO	EC50	MT-4		>18 µM
CC(=O)ON1COC[C@H]2O[C@@H](n3cc(C)c(=O)[nH]c3=O)C[C@@H]21	trypan blue		ROD	EC50	MT-4		19 µg/mL
COc1ccc(/C=N/NC(=O)c2csc(N3N=C(c4ccccc4)CC3c3ccc(Cl)cc3)n2)cc1O	MTT / absorbance		ROD	EC50	MT-4		>61.75 µM
CO[C@@H]1[C@@H](O)[C@@H](O)[C@H](O)[C@H](O)[C@H]1n1cnc2c(N)ncnc21	cytopathic effect / MTT			EC50	MT-4		>10 µg/mL
COc1nc(=O)[nH]c2c1C(c1ccc(Cl)cc1)c1c(OC)nc(=O)[nH]c1O2	cytopathic effect		EHO	EC50	MT-4		>347 µM
Cc1cn([C@H]2C[C@H](N=[N+]=[N-])[C@@H](CO)O2)c(=O)[nH]c1=O			ROD	EC50	PBMC		0.003 µM
COc1nc(=O)[nH]c2c1C(c1ccc(Br)cc1)c1c(OC)nc(=O)[nH]c1O2	cytopathic effect		EHO	EC50	MT-4		>309 µM
O=C(N/N=C/c1ccccc1[N+](=O)[O-])c1csc(N2N=C(c3ccccc3)CC2c2ccc(Cl)cc2)n1	MTT / absorbance		ROD	EC50	MT-4		>125 µM
CCCCCCCCCCCCCCCCOCCOP(=O)(O)OC[C@H]1O[C@@H](n2cc(C)c(=O)[nH]c2=O)C[C@@H]1N=[N+]=[N-]	syncytia		ROD	EC50	CEM + CEM/O		0.052 µM

The first 7 rows once more:

smiles,read by,mutations,strain,measure,cell line,setting,result
Cc1cn([C@H]2C[C@H](N=[N+]=[N-])[C@@H](CO)O2)c(=O)[nH]c1=O,p24,,CDC310319,EC50,PBMC,,0.006 µM
Cc1ccnc2c1NC(=O)c1cccnc1N2C1CC1,MTT / absorbance,,ROD,EC50,MT-4,,>4 µM
Cc1cn([C@H]2C=C[C@@H](COP3(=O)OCc4c(Cl)cccc4O3)O2)c(=O)[nH]c1=O,,,,EC50,CEM + CEM TK-,,0.8 µM
O=C(N/N=C/c1cc([N+](=O)[O-])ccc1Cl)c1csc(N2N=C(c3ccccc3)CC2c2ccc(Cl)cc2)n1,MTT / absorbance,,ROD,EC50,MT-4,,>125 µM
Cc1cn([C@H]2C=C[C@@H](COP3(=O)Oc4ccccc4C(C)O3)O2)c(=O)[nH]c1=O,,,,EC50,CEM + CEM/O,,0.34 µM
CC(C)(C)NC(=O)[C@@H]1C[C@@H]2CCCC[C@@H]2CN1C[C@@H](O)[C@H](Cc1ccccc1)NC(=O)[C@H](CC(N)=O)NC(=O)c1ccc2ccccc2n1,RT activity,,ROD,EC90,PBMC,,0.019 µM
CN=C1CN=C(c2ccc[nH]2)c2cc(Cl)ccc2N1,plaque count,,ROD,EC50,HT4 + HT4-6C,,3 µM

Neighbouring rows are from separate reports. ECn is the concentration giving n% inhibition of infection, replication or growth.